Results of unrelated studies side by side (data: NIAID ChemDB).

Shared fields: tests in culture; agent: Vaccinia virus; measure: EC50

Neighbouring rows are from separate reports. ECn: concentration that inhibits the pathogen or its effect by n%. Two numbers with a dash give a range or band. An empty or dashed field is not shown.

{"compound": "NC(=O)c1c[se]c([C@@H]2O[C@H](CO)[C@@H](O)[C@H]2O)n1", "strain or isolate": "Elstree", "cells": "HeLa", "value": "2 µg/mL"}
{"compound": "O=c1[nH]c(=O)n([C@H]2C[C@H](O)[C@@H](CO)O2)cc1F", "cells": "PRK", "value": "0.1 µg/mL"}
{"compound": "Nc1ncnc2c1ncn2CCOCP(=O)(O)O", "value": "555 µM"}
{"compound": "Nc1ccn(C[C@@H](CO)OCP(=O)(O)O)c(=O)n1", "cells": "VERO", "value": "74 µM"}
{"compound": "NC(=O)c1ncn([C@@H]2O[C@H](CO)[C@@H](O)[C@H]2O)n1", "cells": "PRK", "value": "4–20 µg/mL"}
{"compound": "CCCCOC(=O)C(C)NP(=O)(COCCn1cnc2c(N)ncnc21)NC(C)C(=O)OCCCC", "strain or isolate": "NYC", "cells": "HFF", "value": "5.1 µM"}
{"compound": "Nc1ccn(C[C@H]2COP(=O)(O)CO2)c(=O)n1", "strain or isolate": "IHD", "cells": "HFF", "value": "10.9 µM"}
{"compound": "CC(C)(C)NC(=O)[C@@H]1CN(Cc2cccnc2)CCN1C[C@@H](O)C[C@@H](Cc1ccccc1)C(=O)N[C@H]1c2ccccc2C[C@H]1O", "cells": "HFF", "value": ">300 µM"}
{"compound": "Nc1ncnc2c1ncn2CCOCP(=O)(O)O", "cells": "Primary rabbit kidney cells", "value": "150 µg/mL"}
{"compound": "Cc1ccnc2c1NC(=O)c1cccnc1N2C1CC1", "cells": "HFF", "value": ">300 µM"}
{"compound": "NC(=S)N=Nc1c(O)[nH]c2ccccc12", "cells": "HeLa", "value": "<1 µg/mL"}
{"compound": "Nc1ccn(C[C@@H](CO)OCP(=O)(O)O)c(=O)n1", "strain or isolate": "NYC", "cells": "HFF", "value": "36 µM"}
{"compound": "O=c1[nH]cnc2c1ncn2CCOCP(=O)(O)O", "cells": "Primary rabbit kidney cells", "value": ">400 µg/mL"}
{"compound": "CCCCCCCCCCCCCCCCOCCCOP(=O)(O)CO[C@H](CO)Cn1ccc(N)nc1=O", "strain or isolate": "Elstree", "cells": "HFF", "value": "1.2 µM"}
{"compound": "O=C1Nc2ccc(Cl)cc2[C@@](C#CC2CC2)(C(F)(F)F)O1", "cells": "HFF", "value": ">300 µM"}
{"compound": "Nc1cc(OC[C@H](CO)OCP(=O)(O)O)nc(N)n1", "value": "19 µM"}
{"compound": "Nc1ncnc2c1ncn2CC(O)C(=O)O", "cells": "PRK", "value": "3–30 µg/mL"}
{"compound": "CCCCCCCCCCCCCCCCOCCCOP1(=O)CO[C@@H](Cn2ccc(N)nc2=O)CO1", "strain or isolate": "IHD", "cells": "HFF", "value": "0.1 µM"}
{"compound": "Nc1nccc2c1ncn2[C@@H]1C=C(CO)[C@@H](O)[C@H]1O", "cells": "VERO", "value": "0.03–0.3 µg/mL"}
{"compound": "CCCCOC(=O)[C@H](C)NP1(=O)CO[C@@H](Cn2ccc(N)nc2=O)CO1", "strain or isolate": "Copenhagen", "cells": "HFF", "value": "4.6 µM"}
{"compound": "Nc1ncnc2c1ncn2[C@H]1[C@H](O)[C@H](O)[C@@H](CO)[C@H]1F", "cells": "L929", "value": "0.2 µg/mL"}
{"compound": "Nc1nc(N)c2ncn(CC(CO)OCP(=O)(O)O)c2n1", "cells": "Primary rabbit kidney cells", "value": "2 µg/mL"}
{"compound": "Nc1ncnc2c1ncn2C[C@@H](CO)OCP(=O)(O)O", "value": "2.3 µM"}
{"compound": "CC(C)(C)C(=O)OCOP(=O)(COCCn1cnc2c(N)ncnc21)OCOC(=O)C(C)(C)C", "strain or isolate": "WR", "cells": "HFF", "value": "18.5 µM"}
{"compound": "Nc1ccn(C[C@@H](CO)OCP(=O)(O)O)c(=O)n1", "strain or isolate": "IHD", "cells": "HFF", "value": "13.4 µM"}
{"compound": "O=c1[nH]cnc2c1ncn2[C@H]1CC[C@@H](CO)O1", "cells": "HFF", "value": ">300 µM"}
{"compound": "CN(C)c1nc(N)nc2c1ncn2CCOCP(=O)(O)O", "strain or isolate": "WR", "cells": "HFF", "value": "22 µM"}
{"compound": "O=c1[nH]c(=O)n([C@H]2C[C@H](O)[C@@H](CO)O2)cc1[N+](=O)[O-]", "cells": "PRK", "value": "0.2 µg/mL"}
{"compound": "CC(C)OC(=O)C(C)NP(=O)(COCCn1cnc2c(NC3CC3)nc(N)nc21)Oc1ccccc1", "strain or isolate": "Copenhagen", "cells": "HFF", "value": "1.1 µM"}
{"compound": "Nc1ccn([C@H]2CC[C@@H](CO)O2)c(=O)n1", "cells": "VERO", "value": ">474 µM"}
{"compound": "Nc1ncnc2c1ncn2[C@@H]1CC[C@@H](O)[C@H]1O", "cells": "L929", "value": "0.03 µg/mL"}

For reference, 4 entries again:

| compound | strain or isolate | cells | value |
|---|---|---|---|
| O=c1[nH]cnc2c1ncn2[C@H]1CC[C@@H](CO)O1 | - | HFF | >300 µM |
| CC(C)(C)NC(=O)[C@@H]1CN(Cc2cccnc2)CCN1C[C@@H](O)C[C@@H](Cc1ccccc1)C(=O)N[C@H]1c2ccccc2C[C@H]1O | - | HFF | >300 µM |
| O=c1[nH]c(=O)n([C@H]2C[C@H](O)[C@@H](CO)O2)cc1[N+](=O)[O-] | - | PRK | 0.2 µg/mL |
| Nc1ncnc2c1ncn2CCOCP(=O)(O)O | - | - | 555 µM |